Substitutions are numbered along the chain they refer to. Bounds are passed on as bounds.

B1: 506.A05 (antibody, V domains shown)
VH: QVQLVESGGGVVQPGRSLRLSCAASGFTFSSYGMHWVRQAPGKGLEWLAVISYDGSNKYYADSVKGRFTISRDNSKTTLFLQMNSLRAEDTAVYYCAKDIQRRLIDYWGQGTLVTVSS
VL: DIQMTQSPSSLSASVGDRVTITCQASQDISNFLNWYQQKPRKAPKLLIFDASNLETGVPSRFSGSGSGTDFTFTISSLQPEDIATYYCQQYDNLPLTFGGGTKVEIK
B2: 520.F04 (antibody, V domains shown)
VH: QVQLVESGGGVVQPGRSLRLSCAASGFTFSSYGMHWVRQAPGKGLEWVAVISYDGSNDYYADSVKGRFTISRDNSKNTLYLQMNSLRAEDTAVYYCAKCVWFGELSPFDYWGQGTLVTVSS
VL: DIQMTQSPSSLSASVGDRVTITCRASQGISNYFAWYQQKPGKVPKLLIYAASTLQSGVPSRFSGSGSGTDFTLTISSLQPEDVATYYCQKYNSAPGITFGPGTKVDIK
B3: 520.D05 (antibody, V domains shown)
VH: QVQLQQWGAGLLKPSETLSLTCAVYGGSFSGYILSWIRQPPGKGLEWIGEINHRGSTSYNPSLKSRVTISLDTSKNHFSLKLSSVTAADTAVYYCAKSPYMDVWGKGTTVTVSS
VL: EIVLTQSPGTLSLSPGERATLSCRASQSVSSSYFAWYQQKPGQAPRLLIYGASSRATGIPDRFSGGGSGTDFTLTISRLEPEDFAVYYCQQYVSSPYTFGQGTKLEIK
B4: 516.C08 (antibody, V domains shown)
VH: QITLKESGPTLVKPTQTLTLTCTFSGFSLSTSEVGVGWIRQPPGKALEWLALIYWDDDKRYSPSLKSRLTITKDTSKNQVVLTMTNMDPVDTATYYCAHIKQDCSSTSCYPVTFDYWGQGTLVTVSS
VL: DIVMTQSPDSLAVSLGERATINCKSSQSVLDRSNNKKYLAWYQQKSGQPPKLLIYWASTRESGVPDRFSGSGSGTDFTLTISSLQAEDVAVYYCQQYYSTPWTFGQGTKVEIK
B5: 516.A10 (antibody, V domains shown)
VH: QVQMVESGGGVVQPGRSLRLSCAASGFTFSSYPIHWVRQVPGKGLEWVAVISYDGSNKYYADSVKGRFTISRDNSKNTLYLQMNSLRPEDTAVYFCARGRGDFELNSFDYWGQGTLVTVSS
VL: B3 VL with F34L, A35G, P41L, G66S, V93G, S95T, Y97F, Q101P, L105V, E106D

One test concerns the target CHIKV-37997 (virus) (Chikungunya virus strain 37997, UniProt Q5XXP3 326-748; Q5XXP3 810-1248). In words: cell-based or functional assay.
Consider B1, for which the “FRNT neutralisation, 37997 EC50” value was found to be 0.001 µg/mL.
Same read-out and setting: the result for B2 reads 0.202 µg/mL; that for B3, 0.003 µg/mL; that for B4, 0.03 µg/mL.

The target of a further test is CHIKV-LR 2006 (virus) (Chikungunya virus strain LR 2006). Briefly: cell-based or functional assay.
Regarding B1, the “FRNT neutralisation, LR 2006 EC50” value was determined as 0.236 µg/mL.
On the same count and under the same terms, the result for B2 reads 0.072 µg/mL; that for B3, 0.042 µg/mL.
As to B4, the “FRNT neutralisation, LR 2006 EC50” value worked out at 0.075 µg/mL.

A further test deals with ONNV (O'nyong'nyong virus, MP30) envelope glycoproteins (O'nyong'nyong virus strain MP30). In words: cell-based or functional assay.
Take B3: the “FRNT neutralisation of ONNV, EC50” value is below 0.05 µg/mL.
For B5, the “FRNT neutralisation of ONNV, EC50” value was below 0.05 µg/mL.

The values are drawn from patent US20260062466A1 (WASHINGTON UNIVERSITY, published 2026).
